The text below walks through data of patent US9839708B2, “Method for treating used absorbent article” (Unicharm Corporation, priority 2012, dated 2017).

The data set in a line: Evaluation of washing function (whiteness ΔE of washed artificially soiled cloth). Conditions: Soiled cloth: ΔE = 50.0; Original cloth: 9.4; washed 10 minutes twice, colorimeter.

Consider `OCl` [compound 3, sodium hypochlorite], for which the “Washing Function ΔE” value was 24.9.

For `[Na+].[O-]Cl` [compound 4, sodium hypochlorite], the “Washing Function ΔE” value was 24.6.

With `OCl` [compound 5, sodium hypochlorite], the “Washing Function ΔE” value amounted to 19.7.
